Anti-infective test results gathered from many reports (values: NIAID ChemDB through PubChem).

Shared fields: host cell toxicity; read-out: CC50

Rows are shuffled and stem from different studies. Two numbers with a dash give a range or band. CCn is the concentration with n% toxicity to the cells.

{"structure": "C=CCSc1n[nH]c(-c2ccc(C(F)(F)F)cc2)n1", "cell line": "Panc-1", "result": ">100 µg/mL"}
{"structure": "CN1CCn2c(nc(C(=O)NCc3ccc(F)c(Cl)c3)c(O)c2=O)C1(C)C", "cell line": "MT-4", "read by": "microscopy", "result": ">1 µM"}
{"structure": "CCCN(Cc1cccc(OCCCCCC(=O)OCC)c1)C(=O)c1ccc(-c2ccc3c(c2)OCO3)cc1", "cell line": "BJ", "result": ">20 µM"}
{"structure": "Cc1cn([C@H]2C[C@H](N=[N+]=[N-])C(COC(=O)COC[C@H]3O[C@@H](O[C@@H]4OC[C@@H](O[C@H]5[C@@H](OS(=O)(=O)[O-])[C@@H](OS(=O)(=O)[O-])[C@H](O)O[C@@H]5CO)[C@H](O)[C@H]4O)[C@H](O)[C@@H](O)[C@@H]3O[C@@H]3O[C@H](COS(=O)(=O)[O-])C[C@H](O)[C@H]3OS(=O)(=O)[O-])O2)c(=O)[nH]c1=O", "cell line": "P4R5", "read by": "MTT", "result": ">100 µg/mL"}
{"structure": "O=C(NCc1ccc(Cl)cc1)c1c[nH]c2c(F)cccc2c1=O", "cell line": "REF", "result": ">50 µM"}
{"structure": "COc1ccc(-c2nc3ccccc3n2C(=O)/C=C/c2ccccc2)cc1", "cell line": "8E5", "read by": "MTT / absorbance", "result": "20 µg/mL"}
{"structure": "O=C(CSc1nc(-c2cccs2)c2c(n1)-c1ccccc1CC2)NN1C(=O)c2ccccc2C1=O", "cell line": "HUh-7 and HepG2", "result": "215 µM"}
{"structure": "CCSc1n[nH]c(-c2cccc([N+](=O)[O-])c2C)n1", "cell line": "Panc-1", "result": ">100 µg/mL"}
{"structure": "Cc1cc(-c2nn(CCO)c(C)c2N=O)no1", "cell line": "MIT-4", "result": "3.35 µM"}
{"structure": "CN1CCn2c(nc(C(=O)NCc3ccc(F)c(Br)c3)c(O)c2=O)C1(C)C", "cell line": "MT-4", "read by": "microscopy", "result": ">1 µM"}
{"structure": "O=C(O)c1ccc(N2C(=O)c3cccc([N+](=O)[O-])c3C2=O)cc1O", "cell line": "RAW 264.7", "read by": "visual reading / absorbance", "result": ">100 µg/mL"}
{"structure": "CCCCCCCCCCCCCCOc1ccc(C(C)=O)o1", "cell line": "R-HELA", "result": "25–50 µg/mL"}
{"structure": "O=C(N[C@@H](C(=O)N1CCC[C@H]1C(=O)Nc1nc(-c2ccccc2)cs1)c1ccccc1)C1CC1", "cell line": "Huh7.7", "read by": "MTT", "result": ">50 µM"}
{"structure": "COc1ccc(/C=C/C(=O)c2c(OB(F)F)cc(/C=C/c3ccc(N(C)C)cc3)oc2=O)cc1", "cell line": "HCT116", "read by": "MTT", "result": ">10 µM"}
{"structure": "Cc1cc(CNC(=O)c2nc3n(c(=O)c2O)CCN(C2CC2)CC3N(C)C(=O)C(=O)N(C)C)ccc1F", "cell line": "MT-4", "read by": "microscopy", "result": ">1 µM"}
{"structure": "O=C(O)CSc1nc(-c2cccs2)c2c(n1)-c1ccccc1CC2", "cell line": "HUh-7 and HepG2", "result": "516 µM"}
{"structure": "CCCCn1nc(-c2cc(C)on2)c(N=O)c1C", "cell line": "MIT-4", "result": "92 µM"}
{"structure": "CCOC(=O)CCCCCOc1cccc(CN(C(=O)c2ccc(-c3cccc(OC(F)(F)F)c3)cc2)C(C)C)c1", "cell line": "RAJI", "result": ">20 µM"}
{"structure": "O=c1ccn(-c2ccc(F)cc2)c2cc(-n3cccc3)ccc12", "cell line": "HPB-ALL", "read by": "luminescence", "result": "37.5 µM"}
{"structure": "Nc1nc2c(ncn2COCCO)c(=O)[nH]1", "cell line": "P3HR-1", "result": "255 µM"}
{"structure": "CSc1nsc(-c2ccc(OCCCc3ccccc3)cc2)c1C#N", "cell line": "HEP-2/L-929/VERO", "result": ">20 µM"}
{"structure": "O=C(NCc1ccc(Cl)cc1)c1c[nH]c2ccc(CCCO)cc2c1=O", "cell line": "REF", "result": "48.7 µM"}
{"structure": "CC(C)(CF)C(=O)Nc1cccc(NS(=O)(=O)c2ccc(-c3noc(-c4ccccc4)n3)cc2)c1", "cell line": "HELF", "result": "<8 µM"}
{"structure": "Cc1cc(-c2n[nH]c(C)c2N=O)no1", "cell line": "MIT-4", "result": "26 µM"}
{"structure": "CC(C)N(Cc1cccc(OCCCCCC(=O)OC(=O)O)c1)C(=O)c1ccc(-c2ccoc2)cc1", "cell line": "HEK 293", "result": ">20 µM"}
{"structure": "COC(=O)[C@H]1[C@@H]2C[C@@H](O[C@@H]3O[C@H](C)[C@@H](O)[C@H](N)[C@@H]3O)/C=C/C=C/C=C/C=C/C=C/C=C/C=C/[C@H](C)[C@@H](O)[C@H](C)[C@H](C)OC(=O)C[C@H](O)C[C@H](O)[C@@H](O)CC[C@H](O)C[C@H](O)C[C@](O)(C[C@@H]1O)O2", "cell line": "MIT-4", "result": ">200 µM"}
{"structure": "COc1ccc(/C=C/C(=O)c2c(O)cc(/C=C/c3ccc(N(C)C)cc3)oc2=O)cc1", "cell line": "HCT116", "read by": "MTT", "result": ">10 µM"}
{"structure": "CN1CCn2c(nc(C(=O)NCc3ccc(F)cc3)c(O)c2=O)C12CCOCC2", "cell line": "MT-4", "read by": "microscopy", "result": ">1 µM"}
{"structure": "CCc1nc2cc3ccccc3cc2cc1C(=O)N[C@@H](C/C=C\\C[C@H](NC(=O)c1cc2cc3ccccc3cc2nc1CC)C(=O)N1CCC[C@H]1C(=O)N[C@@H](Cc1ccccc1)C(=O)NCCCN)C(=O)N1CCC[C@H]1C(=O)N[C@@H](Cc1ccccc1)C(=O)NCCCN", "cell line": "HEK293T", "read by": "WST", "result": "≥60 µM"}
{"structure": "Cc1noc(C)c1-c1ccc2c(c1)N(c1cc(N)c(F)cc1F)CCC2=O", "cell line": "HPB-ALL", "read by": "luminescence", "result": "26.2 µM"}
{"structure": "C=CCSc1n[nH]c(-c2ccco2)n1", "cell line": "Panc-1", "result": ">100 µg/mL"}
{"structure": "CCc1cn([C@@H]2C[C@H](O)[C@@H](CO)O2)c(=O)[nH]c1=O", "cell line": "F5000 (human embryo)", "result": "1000 µM"}
{"structure": "Cc1cc(-c2c(N=O)c(C)nn2C)no1", "cell line": "MIT-4", "result": "11.6 µM"}
{"structure": "CCSc1n[nH]c(-c2ccc(Cl)cc2C)n1", "cell line": "Panc-1", "result": ">100 µg/mL"}
{"structure": "CN(C)c1ccc(/C=C/C(=O)c2c(OB(F)F)cc(/C=C/c3ccc(N(C)C)cc3)oc2=O)cc1", "cell line": "HCT116", "read by": "MTT", "result": ">10 µM"}
{"structure": "CSc1nsc(-c2ccc(OCCOc3ccccc3)cc2)c1C#N", "cell line": "HELA-OHIO", "result": ">50 µM"}
{"structure": "C=CCSc1n[nH]c(-c2cccc(C(F)(F)F)c2)n1", "cell line": "Panc-1", "result": ">100 µg/mL"}
{"structure": "CCn1nc(C)c(N)c1-c1cc(C)on1", "cell line": "MIT-4", "result": ">200 µM"}
{"structure": "O=c1ccn(-c2ccc(F)cc2)c2cc(-c3ccncc3)c(F)cc12", "cell line": "HPB-ALL", "read by": "luminescence", "result": ">500 µM"}
{"structure": "CCCCSc1n[nH]c(-c2cccc([N+](=O)[O-])c2C)n1", "cell line": "Panc-1", "result": ">100 µg/mL"}
{"structure": "O=c1ccn(-c2ccc(F)cc2)c2cc(-c3ccncc3)ccc12", "cell line": "HPB-ALL", "read by": "luminescence", "result": "71.7 µM"}
{"structure": "CN1Cn2c(nc(C(=O)NCc3ccc(F)cc3S(C)(=O)=O)c(O)c2=O)C1(C)C", "cell line": "MT-4", "read by": "microscopy", "result": ">1 µM"}
{"structure": "CN(CCc1ccccc1)Cc1c(CC2CCCCC2)[nH]c2ccnc(Cl)c12", "cell line": "HEK293T", "read by": "MTT", "result": "19.1 µg/mL"}
{"structure": "COC(=O)c1cc(-c2cccs2)nc2ccccc12", "cell line": "RAJI", "result": ">20 µM"}
{"structure": "C#CCSc1n[nH]c(-c2ccc([N+](=O)[O-])c(C)c2)n1", "cell line": "Panc-1", "result": ">100 µg/mL"}
{"structure": "Cc1ccc(CNC(=O)c2nc3n(c(=O)c2O)CCNCC3N(C)C(=O)C(=O)N(C)C)cc1Cl", "cell line": "MT-4", "read by": "microscopy", "result": ">1 µM"}
{"structure": "CSc1nsc(-c2ccc(OCCc3ccccc3)cc2)c1C#N", "cell line": "HEP-2/L-929/VERO", "result": ">20 µM"}
{"structure": "Cc1cc(-c2cc(C)n(CCO)n2)no1", "cell line": "MIT-4", "result": ">200 µM"}
{"structure": "CCc1cc(-c2ccc(C)o2)n(-c2ccc3c(c2)nc(-c2cc(F)ccc2O)n3Cc2ccc(OC)c(O)c2)n1", "cell line": "12D7-MDR", "read by": "MTT", "result": ">21 µM"}
{"structure": "Cc1cc(-c2cc(C)n(C)n2)no1", "cell line": "MIT-4", "result": ">200 µM"}
{"structure": "C=CCSc1n[nH]c(-c2ccc([N+](=O)[O-])c(C)c2)n1", "cell line": "Panc-1", "result": ">100 µg/mL"}
{"structure": "Nc1cc(N2CCC(=O)c3ccc(-n4ccnc4)cc32)c(F)cc1F", "cell line": "HPB-ALL", "read by": "luminescence", "result": "17.6 µM"}

Again, the opening 4 rows:

{"structure": "C=CCSc1n[nH]c(-c2ccc(C(F)(F)F)cc2)n1", "cell line": "Panc-1", "result": ">100 µg/mL"}
{"structure": "CN1CCn2c(nc(C(=O)NCc3ccc(F)c(Cl)c3)c(O)c2=O)C1(C)C", "cell line": "MT-4", "read by": "microscopy", "result": ">1 µM"}
{"structure": "CCCN(Cc1cccc(OCCCCCC(=O)OCC)c1)C(=O)c1ccc(-c2ccc3c(c2)OCO3)cc1", "cell line": "BJ", "result": ">20 µM"}
{"structure": "Cc1cn([C@H]2C[C@H](N=[N+]=[N-])C(COC(=O)COC[C@H]3O[C@@H](O[C@@H]4OC[C@@H](O[C@H]5[C@@H](OS(=O)(=O)[O-])[C@@H](OS(=O)(=O)[O-])[C@H](O)O[C@@H]5CO)[C@H](O)[C@H]4O)[C@H](O)[C@@H](O)[C@@H]3O[C@@H]3O[C@H](COS(=O)(=O)[O-])C[C@H](O)[C@H]3OS(=O)(=O)[O-])O2)c(=O)[nH]c1=O", "cell line": "P4R5", "read by": "MTT", "result": ">100 µg/mL"}